# Percent effect of library compounds

Mtb glucose medium: 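Whole-cell growth test on Mycobacterium tuberculosis, read after 3 days in glucose-containing 7H9 medium; the read-out is not stated. Tested at 500 µM. The record gives no direction; compounds that gave an IC50 in retests scored well above the rest, so higher reads as more growth inhibition. About 18,000 compounds were tested under these conditions; 7.9% (about 1,400) showed 50% or more at least once.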
Mtb cholesterol medium: 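Whole-cell growth test on Mycobacterium tuberculosis, read after 4 days in a medium based on cholesterol and the lipid DPPC; the read-out is not stated. Compounds at 500 µM. The record gives no direction; compounds that gave an IC50 in retests scored well above the rest, so higher reads as more growth inhibition. Size under these conditions: about 18,000 compounds, about 900 of them at 50% or above in at least one test.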

Results are given as percent effect.
The controls that fix the scale are not given in the record; negative values are as filed.
Many other results are left out here, so strong results are more common than in the screen.
A dash means the value is not listed here; it may have been measured.

| compound | Mtb glucose medium | Mtb cholesterol medium |
|---|---|---|
| `COc1ccc(CNC(=O)c2cnsn2)cc1` | -15.02 | -10.32 |
| `CN(CCCOc1ccc(Cl)cc1)CC(N)=O` | 32.28 | 40.09 |
| `CN1CCCN(CC(=O)NCCc2ncnn2C)CC1` | -12.84 | - |
| `CCOC(=O)CNC(=O)NC(C)c1ccccn1` (stereo unspecified) | - | 9.503 |
| `NCCc1cnc2ccccc2c1` | 22.93 | - |
| `Cc1noc(C)c1S(=O)(=O)N1CCC(C(N)=O)C1` (stereo unspecified) | - | -21.57 |
| `CCNC(=O)CCN(C)Cc1nc2cccc(C)c2[nH]1` | 10.28 | - |
| `O=C(Cc1n[nH]c(=O)c2ccccc12)N1CCC1` | -7.139 | - |
| `COCCN(Cc1ccsc1)C(=O)[C@@H]1C[C@H](N)CN1C` | 43.63 | - |
| `CNC(=O)NC(=O)CCN1CCCC(C)C1` (stereo unspecified) | 46.89 | 17.68 |
| `CCOC(CO)C1CC1` (stereo unspecified) | -11.79 | - |
| `N#Cc1cc(Br)ccn1` | -7.272 | - |
| `N#CCCn1ncc2c(NCc3cccs3)ncnc21` | 65.03 | - |
| `Cc1nc(C2CCN(CC3CCOC3)CC2)no1` (stereo unspecified) | 2.23 | - |
| `O=C(NCCSCc1ccco1)c1cccnc1O` | 1.933 | - |
| `COc1ccccc1-c1ncc(CN)s1` | -5.427 | -10.77 |
| `CCN(CCn1cccn1)C(=O)c1cc(C)n[nH]1` | - | 39.44 |
| `CSc1ccccc1NCC(=O)NC1CC1` | 28.24 | - |
| `Cc1cc(C)n(CCCC(=O)N[C@@H]2COCC[C@H]2O)n1` | - | -13.68 |
| `O=C(CC1CNCCO1)NCc1ccc2sccc2c1` (stereo unspecified) | - | 10.77 |
| `CC(C)(C)c1nc(CN)no1` | -7.298 | - |
| `Cn1cc(C2CSCCN2Cc2cncs2)cn1` (stereo unspecified) | 11.02 | - |
| `O=C(Cc1cn2ccsc2n1)NCc1ccncc1` | -20.77 | -28 |
| `Cc1nc(CNC(CCO)C(C)C)no1` (stereo unspecified) | - | -0.8026 |
| `Cc1ccc(C(=O)N2CCC(N3CCN(C)CC3)C2)s1` (stereo unspecified) | 6.744 | - |
| `Cc1cc(CNC(=O)C2(C)CCN(C)CC2)n(C)n1` | - | -8.497 |
| `CC(C)CC(=O)N1CCNCC1` | - | -9.792 |
| `CNc1nc(C(=O)N2CC(C)(C)[C@@](C)(O)C2)cs1` | - | 6.077 |
| `NCC(O)c1ccc(Cl)s1` (stereo unspecified) | 64.65 | 67.59 |
| `CCS(=O)(=O)C(C)C(=O)NC(C)(C)C` (stereo unspecified) | - | -0.4604 |
| `CC(=O)c1cc(CN(C)CC2CC(=O)N(C)C2)n(C)c1` (stereo unspecified) | -6.585 | - |
| `CCCOc1cc(C)ccc1NC(=O)Cn1cnnn1` | - | 56.13 |
| `CC(C)NC(=O)CS(=O)(=O)Cc1ccccc1F` | - | -4.255 |
| `COc1cc(Br)ccc1CCCNC(=O)c1c[nH]nn1` | - | 89.35 |
| `Cn1cc(C2CSCCN2Cc2ccon2)cn1` (stereo unspecified) | - | 0.2415 |
| `Brc1cc2c(cc1CN1CCCNCC1)OCO2` | 71.81 | 64.29 |
| `CN(C)C(=O)c1cccc(N)n1` | -4.982 | - |
| `Cc1ccc(CN(C)C(=O)CO)c(C)c1` | 24.63 | - |
| `CC1(C#N)CCCN(C(=O)CCc2cccnc2)C1` (stereo unspecified) | 20.3 | - |
| `CCN1CCC(NC(=O)C2CC2)CC1` | 8.232 | - |
| `COCc1nc(CN(C)CC2COCCO2)no1` (stereo unspecified) | 8.818 | - |

The values are deposited in ChEMBL (CHEMBL3988442, “University of Dundee, Small-Polar-MMV Screening Library” (2021)).